# Data from PubChem BioAssay AID485395 (ICCB-Longwood Screening Facility, Harvard Medical School, 2010).
# Only a part is listed here, and it is no random draw. Calls of active or inactive are those of the source. Rule as the data show it: active = inhibition above about 25% (passing the limit was not always enough); inactive = the rest.
# Test system: replicative DNA helicase (DnaC/DnaB), Staphylococcus aureus
# Experiment: inhibitors of S. aureus replicative helicase, primary screen, biochemical, fluorescence unwinding readout (AID 485395);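 also: 0% = mean of negative control wells and 100% = mean of positive control wells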
# Details: purified S. aureus helicase, fluorescence unwinding assay; active compounds read high; concentration not given here
row,Compound,inhibition
1,Cn1nc(C(=O)NCC2(N3CCCCC3)CCCCC2)c2ccccc2c1=O,inactive: -1%
2,CC(C)(C)OC(=O)N1CCC(Nc2ccc(OC(F)(F)F)cc2)CC1,inactive: -15%
3,FC(F)(F)Oc1ccc(NC2CCNCC2)cc1,inactive: 0%
4,NC(=O)C1(Nc2ccc(F)cc2)CCNCC1,inactive: 1%
5,c1ccc(CN2CCC(Nc3ccc4c(c3)OCO4)CC2)cc1,inactive: 4%
6,Cc1ccc(C(=O)NCC2(N(C)C)CCCCC2)o1,inactive: -6%
7,CCCN1CCC(Nc2ccc(OC)c(OC)c2)CC1,inactive: 5%
8,COc1ccc(C(=O)NCC2(N3CCCCC3)CCCCC2)cc1,inactive: 6%
9,N#CC1(Nc2ccccc2)CCN(Cc2ccccc2)CC1,inactive: -4%
10,Cc1cnc(C(=O)NCC2(N3CCCCC3)CCCCC2)cn1,inactive: -5%
11,CC1CN(CCc2ccccc2)CCC1=O (centres undefined),inactive: 6%
12,O=C1CCN(Cc2ccccc2)CC1,inactive: 8%
13,O=C(NCC1(N2CCOCC2)CCCCC1)c1ccc2nc[nH]c2c1,inactive: -21%
14,CCOC(=O)N1CCC(Nc2ccc(F)cc2)CC1,inactive: 9%
15,CCOC(=O)N1CCC(Nc2cccc(C)c2)CC1,inactive: 3%
16,CC1CN(Cc2ccccc2)CCC1=O (centres undefined),inactive: 0%
17,CC1CN(C)C(C)CC1Nc1ccccc1 (centres undefined),inactive: 14%
18,CCN1CCC(Nc2ccc(F)cc2)CC1,inactive: 10%
19,CN(C)c1ccc(C(=O)NCC2(N3CCCCC3)CCCCC2)cc1,inactive: -5%
20,CC1CN(CCc2ccccc2)C(C)CC1=O (centres undefined),inactive: 14%
21,CCOc1ncccc1C(=O)NCC1(N(C)C)CCCCC1,inactive: -4%
22,O=C(NCC1(N2CCCCC2)CCCCC1)c1n[nH]c2ccccc12,inactive: 8%
23,CCOc1ncccc1C(=O)NCC1(N2CCCCC2)CCCCC1,inactive: 7%
24,NC(=O)C1(Nc2ccccc2)CCN(Cc2ccccc2)CC1,inactive: 2%
25,O=C1CCN(CCc2ccccc2)CC1,inactive: 6%
26,CN1CCC(Nc2ccc(F)cc2)CC1,inactive: -8%
27,O=C(NCC1(N2CCOCC2)CCCCC1)c1cc2ccccc2cc1O,inactive: -5%
28,CCCN1CCC(Nc2cc(OC)cc(OC)c2)CC1,inactive: 15%
29,Cc1c(C(=O)NCC2(N3CCOCC3)CCCCC2)oc2c(Cl)cccc12,inactive: -1%
